Measured values from several laboratories, pooled; numbers as filed in NIAID ChemDB.

All rows: tests in culture; organism: HIV-1; cell line: MT-4; measure: EC50

Lines come from different laboratories, so protocols vary.

| compound | strain | changes | read by | result |
|---|---|---|---|---|
| Cc1cn([C@H]2C[C@@H](OCP(=O)(O)O)CO2)c(=O)[nH]c1=O | IIIB | - | cytopathic effect | 6.59 µM |
| Nc1ncnc2c1ncn2/C=C1/C[C@H]1CO | - | - | - | 13 µM |
| c1ccc(C2OCc3nc4ccccc4n32)cc1 | IIIB | - | cytopathic effect / MTT | >47 µM |
| CCN1C[C@H]2C[C@H](OC)c3c(C(=O)NCc4ccc(F)cc4F)c(=O)c(O)c(n32)C1=O | NL4-3 | - | GFP | 0.0023 µM |
| C=O.Cc1cn(C2CC(N(N)N)C(COP(N)(=O)O)O2)c(=O)[nH]c1=O | - | - | - | 0.339 µM |
| CC(Sc1nnnn1-c1cccc2ccccc12)C(=O)Nc1ccccc1Cl | - | - | p24 | <10 µM |
| O=C(c1ccccc1)c1cnc(Cc2ccc(Nc3c(Cl)cccc3Cl)cc2)[nH]1 | NL4-3 | gp120 F145L N269E Q278H I288V N293D FNSTW364-368 deletion | p24 | >2 µg/mL |
| Cc1c(C(C)(C)C)s/c(=N\S(=O)(=O)c2ccc(O)cc2)n1C | IIIB | - | cytopathic effect / MTT | >25 µM |
| CC(=O)c1ccc(NC(=O)CSc2nc3ncccc3n2-c2ccc(C3CC3)c3ccccc23)c(Br)c1 | IIIB | - | MTT | 0.15 µM |
| O=C(NCCc1ccc(F)cc1)C1C(=O)N(O)C(=O)c2ccccc21 | - | - | MTT | 9.39 µM |
| Cc1c(O)cccc1C(=O)N[C@@H](CSc1ccccc1)[C@H](O)CN1C[C@H]2CCCC[C@H]2C[C@H]1C(=O)NC(C)(C)C | NL4-3 PR S12T I15V I19L M36I R41K H69K L89M CLONE 5( C ) | - | cytopathic effect / MTT | 0.0392 µM |
| O=C(CSc1nnnn1-c1ccccc1-c1ccccc1)Nc1ccccc1[N+](=O)[O-] | - | - | p24 | <10 µM |
| CC(C)=CCC/C(C)=C/Cc1c(O)cc2c(c1O)C(=O)C[C@@H](c1c(O)cc(O)cc1O)O2 | IIIB | - | cytopathic effect / MTT | >200 µg/mL |
| Nc1ncnc2c1ncn2CCOCP(=O)(O)O | - | - | MTT | 0.28 µM |
| Nc1nccc2c1ncn2[C@@H]1C[C@H](CO)[C@@H](O)[C@H]1O | - | - | cytopathic effect / trypan blue | >500 µM |
| O=c1ccn([C@H]2C[C@]3(CO2)CC(F)(F)P(=O)(O)O3)c(=O)[nH]1 | - | - | MTT | >100 µM |
| c1cc(CN2CCCNCCNCCCNCC2)ccc1CN1CCCNCCNCCCNCC1 | NL4-(WT) | - | cytopathic effect / MTT | 0.003 µg/mL |
| Cc1cc(Br)cc(C)c1-n1nnnc1SCC(=O)Nc1ccccc1Cl | - | - | p24 | <10 µM |
| CC(Sc1nc2ncccc2n1-c1ccc(C2CC2)c2ccccc12)C(=O)Nc1ccc(S(N)(=O)=O)cc1Cl | RES056 | - | MTT | >3.2 µM |
| CCOP(=O)(OCC)C(F)(F)C[C@@]1(O)CO[C@@H](n2cnc3c(N)nc(F)nc32)C1 | - | - | MTT | 87 µM |
| O=C1c2ccccc2C(=O)N1CCOC(=S)N(C(=O)c1cccnc1Cl)c1ccc(Cl)cc1 | A17 | RT-K103N Y181C | cytopathic effect / MTT | >100 µM |
| O=c1[nH]cnc2c1ncn2[C@H]1CS[C@@H](CO)S1 | - | - | - | >100 µg/mL |
| Cc1cc(C)cc(Cn2cc(/C(O)=C/C(=O)C(=O)O)c3c(O)cccc32)c1 | - | - | MTT | 44 µM |
| CC(C)c1c(COC(N)=O)cn(Cc2ccncc2)c1Sc1cc(Cl)cc(Cl)c1 | IIIB | - | cytopathic effect / MTT | 0.12 µM |
| C[C@H](Cn1cnc2c(N)ncnc21)OCP(=O)(O)O | IIIB | - | cytopathic effect | 3.35 µM |
| Nc1nc2c(ncn2[C@H]2CS[C@@H](CO)S2)c(=O)[nH]1 | - | - | - | >100 µg/mL |
| Cc1c(C(C)C)s/c(=N\S(=O)(=O)c2cc(Cl)ccc2C#N)n1C | IIIB | - | cytopathic effect / MTT | 0.0017 µM |
| CCCCCCCCCCCCNC(=O)C1C(=O)N(O)C(=O)c2ccccc21 | - | - | MTT | >18.55 µM |
| Cc1cccc(C)c1OCC(=O)N[C@@H](Cc1ccccc1)[C@H](O)C(=O)N1CSC(C)(C)[C@H]1C(=O)NC(C)(C)C | - | - | - | 1.73 µM |
| Nc1nc(=O)n([C@@H]2CS[C@H](CO)O2)cc1F | - | - | - | 0.14 µg/mL |
| Cc1cc(C)c(-n2nnnc2SCC(=O)Nc2sccc2C#N)c(C)c1 | - | - | p24 | <10 µM |
| NC(=O)c1ncn([C@@H]2O[C@H](CO)[C@@H](O)[C@H]2O)n1 | - | - | cytopathic effect / trypan blue | >500 µM |
| Fc1cccc(Cl)c1C1OCc2nc3ccccc3n21 | IIIB | - | cytopathic effect / MTT | 6.07 µM |
| N#Cc1ccc(NC(=O)CSc2nc3ncccc3n2-c2ccc(C3CC3)c3ccccc23)c(Br)c1 | IIIB | - | MTT | >2.78 µM |
| O=C(NCc1ccc(F)cc1)C1C(=O)N(O)C(=O)c2cc(Cl)ccc21 | - | - | MTT | 1.19 µM |
| Cc1cn([C@@H]2OC[C@H](OCP(=O)(O)O)[C@H]2O)c(=O)[nH]c1=O | IIIB | - | cytopathic effect | >328 µM |
| CCOC(=O)CCNP(=O)(OC[C@@H]1O[C@H](n2cc(C)c(=O)[nH]c2=O)C[C@H]1N=[N+]=[N-])OC[C@H]1O[C@@H](n2cc(C)c(=O)[nH]c2=O)C[C@@H]1N=[N+]=[N-] | IIIB | - | cytopathic effect / MTT | 0.79 µM |
| O=C(CSc1nnnn1-c1cccc(Cl)c1Cl)Nc1ccccc1[N+](=O)[O-] | - | - | p24 | <10 µM |
| CCCCNP(=O)(OC[C@@H]1O[C@H](n2cc(C)c(=O)[nH]c2=O)C[C@H]1N=[N+]=[N-])OC[C@H]1O[C@@H](n2cc(C)c(=O)[nH]c2=O)C[C@@H]1N=[N+]=[N-] | IIIB | - | cytopathic effect / MTT | 3 µM |
| CCCN(C)C(=O)Oc1nsnc1-c1c(Cl)ccc(N)c1Cl | IIIB-R | - | MTT | 4.8 µM |
| O=c1[nH]c(-c2ccc(O)c(O)c2O)nc2ccccc12 | - | - | MTT | >9.2 µM |
| Cc1cn([C@H]2C[C@]3(CO2)CC(F)(F)P(=O)(O)O3)c(=O)[nH]c1=O | - | - | MTT | >100 µM |
| NS(=O)(=O)c1ccc(NC(=O)CSc2nc3ncccc3n2-c2ccc(C3CC3)c3ccccc23)c(Br)c1 | RES056 | - | MTT | >1.69 µM |
| CC(C)=CCc1c(O)cc2c(c1O)C(=O)C[C@@H](c1ccc(O)cc1)O2 | IIIB | - | cytopathic effect / MTT | >200 µg/mL |
| Cc1cc(C)c(-n2nnnc2SCC(=O)Nc2ccccc2[N+](=O)[O-])c(C)c1 | - | - | p24 | <10 µM |
| Nc1ccn([C@H]2CC[C@@H](CO)O2)c(=O)n1 | HXB2-D184 (RT-M184V) | RT-M184V | p24 | 2.2 µM |
| O=C1c2ccccc2C(=O)N1CCOC(=S)N(C(=O)c1ccccc1)c1ccccc1 | IIIB | RT-K103R V179D P225H | cytopathic effect / MTT | >100 µM |
| Nc1ncnc2c1ncn2[C@H]1C[C@]2(CO1)CC(F)(F)P(=O)(O)O2 | - | - | MTT | 83.5 µM |
| CCOC(=O)c1ccc(NC(=O)CSc2nc3ncccc3n2-c2ccc(C3CC3)c3ccccc23)c(Br)c1 | RES056 | - | MTT | >3.19 µM |
| OCc1cn(Cc2ccncc2)c(Sc2cc(Cl)cc(Cl)c2)c1C1CCC1 | IIIB | - | cytopathic effect / MTT | 0.08 µM |
| Nc1nc(=O)n([C@@H]2CS[C@@H](CO)S2)cc1F | - | - | - | >100 µg/mL |
| CC(C)c1nc(CN(C)C(=O)N[C@H](C(=O)N[C@@H](Cc2ccccc2)C[C@H](O)[C@H](Cc2ccccc2)NC(=O)OCc2cncs2)C(C)C)cs1 | NL4-3 PR S12T I15V I19L M36I R41K H69K L89M CLONE 5( C ) | - | cytopathic effect / MTT | 0.0462 µM |
| CCOC(=O)c1cn(Cc2ccncc2)c(Sc2cc(Cl)cc(Cl)c2)c1C1CCC1 | IIIB | - | cytopathic effect / MTT | 0.3 µM |
| Cc1c(C(C)C)s/c(=N\S(=O)(=O)c2cc(F)ccc2C#N)n1C | IIIB | - | cytopathic effect / MTT | 0.0077 µM |
| O=C1c2ccccc2C(=O)N1CCOC(=S)N(C(=O)c1cccs1)c1ccc(Cl)cc1 | N119 nevirapine-resistant (RT Y181C) | RT-Y181C | cytopathic effect / MTT | >100 µM |
| Nc1ncnc2c1ncn2[C@@H]1OC[C@H](OCP(=O)(O)O)[C@H]1O | IIIB | - | cytopathic effect | >268 µM |
| Nc1nc2c(ncn2COC(CO)CO)c(=O)[nH]1 | - | - | cytopathic effect / trypan blue | >500 µM |
| Cc1ccc(CNC(=O)C2C(=O)N(O)C(=O)c3ccccc32)cc1 | - | - | MTT | 2.54 µM |
| CC(C)(C)NC(=O)[C@H]1N(C(=O)[C@@H](O)[C@H](Cc2ccccc2)NC(=O)CC(C)(C)C(=O)O)CSC1(C)C | - | - | - | 52 µM |
| Cc1cc(C#N)cc(C)c1Nc1ccnc(Nc2ccc(C#N)cc2)n1 | IIIB | - | syncytia | 0.0004 µM |
| Nc1ncnc2c1ncn2C=C1CC1CO | - | - | - | 26 µM |
| O=c1[nH]c(-c2ccc3[nH]ncc3c2)nc2ccccc12 | - | - | MTT | >42.6 µM |
| O=C(OC[C@@H]1OC(=O)c2ccccc21)c1ccccc1 | - | - | - | >10 µM |
| CC(C)c1s/c(=N\S(=O)(=O)c2cc(Cl)ccc2C#N)n(C)c1Cl | IIIB | - | cytopathic effect / MTT | 0.0047 µM |
| Nc1nc(=O)n([C@H]2CS[C@@H](CO)S2)cc1F | - | - | - | 4.8 µg/mL |
| COc1ccc([C@@H]2CC(=O)c3c(O)cc(O)cc3O2)cc1O | IIIB | - | cytopathic effect / MTT | >200 µg/mL |
| CCc1cc(NCc2nc3c(Cl)ccc(Cl)c3o2)c(=O)[nH]c1C | IIIB | - | - | <0.05 µM |
| Cc1c(C(C)(C)C)s/c(=N\S(=O)(=O)c2cccc(Cl)c2)n1C | IIIB | - | cytopathic effect / MTT | 0.2 µM |
| O=C1c2ccccc2C(=O)N1CCOC(=S)N(C(=O)c1ccccc1)c1ccc(Cl)cc1 | A17 | RT-K103N Y181C | cytopathic effect / MTT | >100 µM |
| Cc1cn([C@H]2C[C@H](N=[N+]=[N-])[C@@H](COCP(=O)(O)O)O2)c(=O)[nH]c1=O | - | - | - | ~1 µM |
| O=C1Nc2ccc(Cl)cc2[C@@](C#Cc2ccccn2)(C2CC2)N1 | IIIB | - | - | <0.025 µM |
| Nc1ccn([C@@H]2OC[C@H](OCP(=O)(O)O)[C@H]2O)c(=O)n1 | IIIB | - | cytopathic effect | >308 µM |
| COc1ccc(CCNC(=O)C2C(=O)N(O)C(=O)c3ccccc32)cc1OC | - | - | MTT | >70.77 µM |
| Nc1nc2c(ncn2[C@H]2C[C@]3(CO2)CC(F)(F)P(=O)(O)O3)c(=O)[nH]1 | - | - | MTT | 94 µM |
| CC(=O)OC[C@@H]1C[C@H](N=[N+]=[N-])C[C@H](n2cc(C)c(=O)[nH]c2=O)O1 | IIIB | - | - | >333 µM |
| CC(=O)OCc1cn(Cc2ccncc2)c(Sc2ccccc2)c1C(C)C | IIIB | - | cytopathic effect / MTT | 0.5 µM |
| Cc1ccnc2c1NC(=O)c1cccnc1N2C1CC1 | - | RT-K70R | - | <0.4 µM |
| C=C(C)[C@@H]1CC[C@]2(C(=O)OC)CC[C@]3(C)[C@H](CC[C@@H]4[C@@]5(C)C[C@@H](F)[C@H](OC(=O)CC(C)(C)C(=O)O)C(C)(C)[C@@H]5CC[C@]43C)[C@@H]12 | NL4-3 | - | p24 / ELISA | >16 µM |
| CC(Sc1nc2ncccc2n1-c1ccc(C2CC2)c2ccccc12)C(=O)Nc1ccc(S(N)(=O)=O)cc1Br | IIIB | - | MTT | 0.11 µM |
| CC(C)=CCc1c(O)cc(O)c2c1O[C@H](c1cc3c(cc1O)O[C@@H](c1ccc(O)cc1)[C@@H]3c1cc(O)cc(O)c1)CC2=O | IIIB | - | cytopathic effect / MTT | 23 µg/mL |
| CN1CCC(c2c(O)cc(O)c3c(=O)cc(-c4ccccc4Cl)oc23)[C@H](O)C1 | - | - | MTT | >0.27 µM |

Repeating the first 11 entries:

| compound | strain | changes | read by | result |
|---|---|---|---|---|
| Cc1cn([C@H]2C[C@@H](OCP(=O)(O)O)CO2)c(=O)[nH]c1=O | IIIB | - | cytopathic effect | 6.59 µM |
| Nc1ncnc2c1ncn2/C=C1/C[C@H]1CO | - | - | - | 13 µM |
| c1ccc(C2OCc3nc4ccccc4n32)cc1 | IIIB | - | cytopathic effect / MTT | >47 µM |
| CCN1C[C@H]2C[C@H](OC)c3c(C(=O)NCc4ccc(F)cc4F)c(=O)c(O)c(n32)C1=O | NL4-3 | - | GFP | 0.0023 µM |
| C=O.Cc1cn(C2CC(N(N)N)C(COP(N)(=O)O)O2)c(=O)[nH]c1=O | - | - | - | 0.339 µM |
| CC(Sc1nnnn1-c1cccc2ccccc12)C(=O)Nc1ccccc1Cl | - | - | p24 | <10 µM |
| O=C(c1ccccc1)c1cnc(Cc2ccc(Nc3c(Cl)cccc3Cl)cc2)[nH]1 | NL4-3 | gp120 F145L N269E Q278H I288V N293D FNSTW364-368 deletion | p24 | >2 µg/mL |
| Cc1c(C(C)(C)C)s/c(=N\S(=O)(=O)c2ccc(O)cc2)n1C | IIIB | - | cytopathic effect / MTT | >25 µM |
| CC(=O)c1ccc(NC(=O)CSc2nc3ncccc3n2-c2ccc(C3CC3)c3ccccc23)c(Br)c1 | IIIB | - | MTT | 0.15 µM |
| O=C(NCCc1ccc(F)cc1)C1C(=O)N(O)C(=O)c2ccccc21 | - | - | MTT | 9.39 µM |
| Cc1c(O)cccc1C(=O)N[C@@H](CSc1ccccc1)[C@H](O)CN1C[C@H]2CCCC[C@H]2C[C@H]1C(=O)NC(C)(C)C | NL4-3 PR S12T I15V I19L M36I R41K H69K L89M CLONE 5( C ) | - | cytopathic effect / MTT | 0.0392 µM |

ECn: concentration that inhibits the pathogen or its effect by n%. An empty or dashed field is not shown.